Results: patent publication US20090069418A1, “Compositions and Methods for the Treatment of Disorders Associated with Aberrant Vasodilation” (priority 2007, published 2009)
Where two headings read alike, the source gives them in different places.

Tested on: mice
Format: in vivo
Excerpt: Male mice between the ages of 16-24 weeks were anesthetized with isoflurane (induction 4-5 vol %; maintenance 1-2 vol %), intubated with a 20G plastic IV catheter, and mechanically ventilated using a rodent ventilator (Inspira, volume-controlled, Harvard Apparatus, MA). ECG and rectal temperature were continuously monitored using a PC-based recording device (PowerLab 8/30, ADInstruments, Colorado Springs, Colo.). The animals were positioned in a right lateral decubital position on a heating pad and rectal temperature was maintained at 37° C. throughout the experiment. A PE-10 catheter was inserted into the left jugular vein for intravenous drug infusion. Using a dissecting microscope, a left-sided thoracotomy was performed in the 4th intercostal space. […] A ligature (8-0 Monosof MV-135-4, ⅜ 5 mm tapered needle, Syneture, Norwalk, Colo.) was placed around the left coronary artery (LCA) approximately 2 mm distal to the left atrial margin. The suture was fed through a short section of PE-10 tubing to form a snare to allow temporary occlusion. The LCA was occluded for 40 minutes; occlusion was confirmed by persistent ECG changes during occlusion and visual paling of the left ventricle (LV). After 40 minutes the snare was released and reperfusion was confirmed with visual hyperemia of the LV and return of the ECG changes. After 2 hours of reperfusion the LCA was re-occluded and fluorescent polymer microspheres (0.4% solution, diameter 1-10 μm; Duke Scientific Corporation, Palo Alto, Calif.) were infused via needle puncture of the LV apex. […] Heart was then excised, rinsed in normal saline, and the right and left atria were removed under the dissecting microscope. The remaining left and right ventricles were weighed and then sliced into seven sections (d=1 mm) for imaging and staining.
Heart sections were immediately photographed with a digital camera (Canon Powershot A620) under UV light for determination of AAR. Infarct size (I) was determined by staining the heart sections in 1% 2,3,5 triphenyltetrazolium chloride (TTC) in phosphate buffer at pH 7.4 for 10 minutes, followed by 10% neutral buffered formalin (NBF) bath overnight. Pictures were taken the next day under full spectrum light. TTC stained non-infarcted myocardium red, while infarcted myocardium remained white. Both AAR and I areas were calculated in a blinded fashion using standard imaging software (Photoshop Elements 4). A calibration ruler was present in each picture to convert pixels into volume. TTC slices were volume corrected for dehydration following formalin immersion.
The 14,15-EET was obtained from BIOMOL (Plymouth Meeting, Pa.). It was dissolved in a vehicle composed of 100% ethanol and saline (1:3), resulting in a final ethanol solution of 25%. […] SNC-162, a non-peptide δ-opioid receptor agonist, was used for comparison of the magnitude of cardioprotection found within the epoxide pathway. SNC-162 (0.1 μg/g iv over 10 minutes) was dissolved in 10% DMSO.

[1] = PRO (given prior to reperfusion)
[2] = given prior to LCA occlusion (PRE)

Row | SMILES | AAR/Biventricular volume [1] [%] | Area At Risk [1] [mm^3] | Biventricular Weight [1] [mg] | Body Weight [1] [g] | AAR/Biventricular volume [2] [%] | Area At Risk [2] [mm^3] | Biventricular Weight [2] [mg] | Body Weight [2] [g]
1 | CCCCOC(=O)CCCCCCCCCCCNC(=O)NC12CC3CC(CC(C3)C1)C2 [AUDA-BE, 12-(3-adamantane-1-yl-ureido)-dodecanoic acid butyl ester] | 34 ± 1 | 45 ± 3 | 121 ± 9 | 26 ± 1 | 28 ± 2 | 39 ± 3 | 123 ± 3 | 27 ± 1
2 | CCCCCC1OC1C/C=C\C/C=C\C/C=C\CCCC(=O)O (stereo not shown) [14,15-EET] | 26 ± 4 | 33 ± 6 | 130 ± 5 | 27 ± 1 | 29 ± 1 | 36 ± 2 | 130 ± 4 | 27 ± 0
